Results reported in ChEMBL document CHEMBL4406897 (Bioorg Med Chem, 2019).

Test system: Plasmodium falciparum
Assay: Potency index, ratio of Ki for 5-(3-chlorophenyl)-6-ethylpyrimidine-2,4-diamine to KI for compound for competitive inhibition of Plasmodium dihydrofolate reductase N51I/C59R/S108N/I164L quadruple mutant expressed in Escherichia coli BL21(DE3)pLysS

`Cl.Nc1nc(N)c(-c2cccc(Cl)c2)c(CCCOc2ccccc2)n1` gave a Ratio Ki of 3 to 30.
